Laboratory results: a compilation of properties of binary mixtures (doi:10.1021/acs.jpcc.7b02296)

Assay: xn = mol fraction of the nth substance listed
Settings: 100 kPa

O=S(=O)(F)[N-]S(=O)(=O)F.[Li+] + CC[n+]1ccn(C)c1.O=S(=O)(F)[N-]S(=O)(=O)F
Settings	electrical conductivity [S/m]	mass density [kg/m3]	viscosity [mPa·s]
268 K, x1 = 0.1	0.41	–	–
268 K, x1 = 0.3	0.18	–	–
278 K, x1 = 0.1	0.64	1488	53.7
278 K, x1 = 0.2	0.48	1521	81
278 K, x1 = 0.4	0.17	1598	252.1
288 K, x1 = 0.1	0.92	1478	35.8
288 K, x1 = 0.3	0.49	1547	81.3
288 K, x1 = 0.4	0.29	1588	141.9
298 K, x1 = 0.1	1.26	1469	25.3
298 K, x1 = 0.2	1.01	1501	36.3
298 K, x1 = 0.3	0.72	1538	53.1
298 K, x1 = 0.4	0.46	1578	87.4
308 K, x1 = 0.1	1.63	1460	18.5
318 K, x1 = 0.1	2.07	1451	14.1
318 K, x1 = 0.2	1.73	1481	19.3
318 K, x1 = 0.4	0.9	1557	40.1
328 K, x1 = 0.1	2.57	1441	11
328 K, x1 = 0.2	2.18	1471	14.8
328 K, x1 = 0.3	1.68	1508	20
328 K, x1 = 0.4	1.19	1547	29
338 K, x1 = 0.1	3.07	1432	8.8
338 K, x1 = 0.2	2.66	1460	11.5
338 K, x1 = 0.3	2.09	1498	15.4
348 K, x1 = 0.1	3.64	1423	7.1
348 K, x1 = 0.2	3.15	1450	9.2
348 K, x1 = 0.3	2.52	1488	12.2
358 K, x1 = 0.1	4.25	1414	5.9
358 K, x1 = 0.2	3.69	1440	7.4
358 K, x1 = 0.3	3.03	1478	9.7
358 K, x1 = 0.4	2.28	1515	13.1
368 K, x1 = 0.1	4.9	–	–
368 K, x1 = 0.2	4.32	–	–
368 K, x1 = 0.3	3.54	–	–
368 K, x1 = 0.4	2.71	–	–

CC[n+]1ccn(C)c1.O=S(=O)(F)[N-]S(=O)(=O)F + O=S(=O)(F)[N-]S(=O)(=O)F.[Li+]
x2 = 0
Settings	electrical conductivity [S/m]	viscosity [mPa·s]
268 K	0.58	–
288 K	1.21	26.4
298 K	1.61	–
318 K	2.57	11.1
328 K	3.11	8.9
348 K	4.39	5.9
358 K	5.1	4.9
368 K	5.79	–
378 K	6.71	–
388 K	7.5	–
